Anti-infective test results gathered from many reports (values: NIAID ChemDB through PubChem).

Shared fields: whole-cell or culture tests; organism: HIV-1; read by: p24; endpoint: EC50

ECn: concentration that inhibits the pathogen or its effect by n%. Conditions beyond the fields shown may differ between rows. An empty or dashed field is not shown. a–b is a range or a potency band.

smiles | strain | conditions | cell line | changes | value
CC[C@H](C)[C@H](NC(=O)[C@@H](C[C@H](O)[C@H](CC1CCCCC1)NC(=O)OC(C)(C)C)C(C)C)C(=O)NCc1cccnc1 | IIIB |  | MOLT-4 |  | 0.04–3 µM
Cc1cn([C@H]2C[C@H](N=[N+]=[N-])[C@@H](CO)O2)c(=O)[nH]c1=O | IIIB |  | C8166 |  | 0.005 µM
COc1c(C)c2c(c(O)c1C/C=C(\C)CCC(=O)O)C(=O)OC2 | LAI |  | PBMC |  | 0.95 µM
Cc1ccc(CCNC(=S)Nc2ccc(Br)cn2)cc1 | IIIB |  | PBMC |  | 0.007 µM
[N-]=[N+]=N[C@H]1C[C@H]2O[C@@H]1COc1nc(=O)c(Br)cn12 |  |  | CEM-F + CEM |  | 28 µM
Cc1cn([C@H]2C=C[C@@H](CO)O2)c(=O)[nH]c1=O | JSL |  | PBMC | MDR | 0.1 µM
O=C(N[C@H]1c2ccccc2OC[C@H]1O)[C@H](Cc1cccnc1)C[C@H](O)CN1CCN(Cc2ccn(-c3cc(Cl)c(Cl)c(Cl)c3)c2)C[C@H]1C(=O)NCC(F)(F)F | V-18C Clinical isolate |  | MT-4 | PR-L10I M36I N37D M46I R57K L63P A71V G73S I84V L90M I93L | <0.015 µM
Cc1cn([C@H]2CC[C@@H](CO)O2)c(=O)[nH]c1=O | IIIB |  | MT-4 |  | 5.46 µM
O=c1c2ccccc2n2nnc3ccc(NCCCN4CCN(CCCNc5ccc6nnn7c8ccccc8c(=O)c5c67)CC4)c1c32 | BaL |  | MM + M/M |  | 0.0198 µM
O=C(O[C@@H]1[C@@H](c2c(O)cc(O)c3c2O[C@H](c2cc(O)c(O)c(O)c2)[C@H](OC(=O)c2cc(O)c(O)c(O)c2)C3)c2c(O)cc(O)cc2O[C@@H]1c1cc(O)c(O)c(O)c1)c1cc(O)c(O)c(O)c1 | IIIB |  | H9 |  | >40 µg/mL
C[C@H](Cn1cnc2c(N)ncnc21)OCP(=O)(O)O | HXB2 |  | PBMC |  | 1.23 µM
Nc1nc(NC2CC2)c2ncn([C@H]3C=C[C@@H](CO)C3)c2n1 | LAI |  | PBMC |  | 1.2 µM
CC(C)c1nc(CN(C)C(=O)N[C@H](C(=O)N[C@@H](Cc2ccccc2)C[C@H](O)[C@H](Cc2ccccc2)NC(=O)OCc2cncs2)C(C)C)cs1 | Ba-L Laboratory isolate |  | PBMC |  | 0.038 µM
Cc1c(O)cccc1C(=O)N[C@@H](CSc1ccccc1)[C@H](O)CN1C[C@H]2CCCC[C@H]2C[C@H]1C(=O)NC(C)(C)C | NL4-3 X4 |  | PBMC |  | 0.02 µM
c1cc(CN2CCCNCCNCCCNCC2)ccc1CN1CCCNCCNCCCNCC1 | NL4-3 |  | PBMC |  | 0.007 µM
CC(C)(C)NC(=O)[C@@H]1C[C@@H]2CCCC[C@@H]2CN1C[C@@H](O)[C@H](Cc1ccccc1)NC(=O)[C@H](CC(N)=O)NC(=O)c1ccc2ccccc2n1 | BR97 (PR L10I K20R M36I/V P63L/S L90M) |  | PBMC | PR-L10I K20R M36I/V P63L/S L90M | 0.013 µM
Cc1c(O)cccc1C(=O)N[C@@H](CSc1ccccc1)[C@H](O)CN1C[C@H]2CCCC[C@H]2C[C@H]1C(=O)NC(C)(C)C | Clinical isolate |  | PBMC | PR-L10I V11I T12E I15V L19I R41K M46L L63 A71T V82A L90M | 0.09 µM
Cc1c(N)nc([C@H](CC(N)=O)NC[C@H](N)C(N)=O)nc1C(=O)N[C@H](C(=O)N[C@H](C)[C@@H](O)[C@H](C)C(=O)N[C@H](C(=O)NCCc1nc(-c2nc(C(=O)NCCC[S+](C)C)cs2)cs1)[C@@H](C)O)C(O[C@@H]1O[C@@H](CO)[C@@H](O)[C@H](O)[C@@H]1O[C@H]1O[C@H](CO)[C@@H](O)[C@H](OC(N)=O)[C@@H]1O)c1cnc[nH]1 | BaL |  | PBMC |  | >0.7 µM
C#C[C@@]1(CO)C=C[C@H](n2cc(C)c(=O)[nH]c2=O)O1 | IIIB |  | PBMC |  | 0.0019 µM
Cc1ccc(-c2ccc3c(c2)C=C(C(=O)Nc2ccc(C[N+](C)(C)C4CCOCC4)cc2)CCC3)cc1 | BAL R5 |  | PBMC |  | 0.028 µM
CCCc1cc(=O)oc2c3c(c4c(c12)OC(C)(C)CC4)O[C@H](C)[C@@H](C)[C@@H]3O | RF |  | CEM + CEM-SS |  | 0.12 µM
CCO/N=C(\c1ccc(Br)cc1)C1CCN(C2(C)CCN(C(=O)c3c(C)cc[n+]([O-])c3C)CC2)CC1 | 93MW959 R5 CLADE C |  | PBMC |  | 0.0011 µM
CCC[C@@]1(CCc2ccccc2)CC(O)=C([C@H](CC)c2cccc(NS(=O)(=O)c3ccc(C(F)(F)F)cn3)c2)C(=O)O1 | Isolate 301-6X ritonavir-resistant |  | PBMC |  | 0.12 µM
Cc1cc(C)c(-n2nnnc2SCC(=O)Nc2cccc3cccnc23)c(C)c1 |  |  | MT-4 |  | <10 µM
O=C(N[C@H]1c2ccccc2OC[C@H]1O)[C@H](Cc1cccnc1)C[C@H](O)CN1CCN(Cc2ccn(-c3ccccc3C(F)(F)F)c2)C[C@H]1C(=O)NCC(F)(F)F | Q-60C Clinical isolate |  | MT-4 | PR-L10I N37S R41K M46I I54V I62V L63P A71V V77I V82A L90M I93L | <0.5 µM
CCCCN1C(=O)C(CC(C)C)NC(=O)C12CCN(CCCCCCc1ccccc1)CC2 | BaL |  | PBMC |  | 0.54 µM
[N-]=[N+]=N[C@H]1C[C@H]2O[C@@H]1COc1nc(=O)c(I)cn12 |  |  | CEM-F + CEM |  | 27.1 µM
Cc1cc(C)c(-n2nnnc2SCC(=O)Nc2sccc2C#N)c(C)c1 |  |  | MT-4 |  | <10 µM
Cc1cn([C@H]2C[C@H](N=[N+]=[N-])[C@@H](CO)O2)c(=O)[nH]c1=O | 1495-2 (RT K70R T215Y/F) NRTI resistant |  | PBMC | RT-K70R T215Y/F | 0.0294 µM
CC(C)[C@H](NC(=O)c1ccc2ccccc2n1)C(=O)N[C@@H](Cc1ccccc1)[C@H](O)CN1CC[C@@H](OCc2ccncc2)C[C@H]1C(=O)NC(C)(C)C | Wg3522 |  | PBMC |  | 0.015 µM
O=C(NCc1ccc(F)cc1)c1nc(N2CCCCS2(=O)=O)c2cccnc2c1O | IIIB |  | H9 |  | <0.015 µM
CCn1nc(Cc2ccc(C#N)cc2)cc1C1CCN(C[C@H]2CN([C@@H](C(=O)O)C(C)(C)C)C[C@@H]2c2cccc(F)c2)CC1 | BaL |  | PBMC |  | <0.0019 µM
C/C(=C(/CCOC(=O)C(C)C)SS/C(CCOC(=O)C(C)C)=C(\C)N(C=O)Cc1cnc(C)nc1N)N(C=O)Cc1cnc(C)nc1N | RF |  | U-937/HIV-1(RF) + U-937 |  | >50 µM
CC(=O)O[C@H]1C2(C=O)C(C=O)=CC[C@@]1(C)CCC2[C@H](C)CCC=C(C)C | Subtype B isolate BR48 |  | PM1 |  | 70 µg/mL
Cc1cn2c(nc1=O)OC[C@H]1O[C@@H]2C[C@@H]1N=[N+]=[N-] |  |  | CEM-F + CEM |  | 0.56 µM
CC(C)CN(C[C@@H](O)[C@H](Cc1ccccc1)NC(=O)O[C@H]1CCOC1)S(=O)(=O)c1ccc(N)cc1 | LAI Laboratory isolate |  | PBMC |  | 0.017 µM
O=C(O[C@@H]1Cc2c(O)cc(O)cc2O[C@@H]1c1ccc(O)c(O)c1)c1cc(O)c(O)c(O)c1 | IIIB |  | H9 |  | >10 µg/mL
O=c1[nH]cnc2c1ncn2[C@H]1CC[C@@H](CO)O1 | Ba-L Laboratory isolate |  | PBMC |  | 1.5 µM
CCCCN1C(=O)C(CC2CCCCC2)NC(=O)C12CCN(Cc1ccc3c(c1)OCCO3)CC2 | MM |  | PBMC | MDR | 0.05 µM
c1cc(CN2CCCNCCNCCCNCC2)ccc1CN1CCCNCCNCCCNCC1 | HE R5X4 |  | U87 (CD4+ CXCR4+) + U87 |  | <0.1 µM
CO[C@H]1O[C@@H](n2ccc(=O)[nH]c2=O)C[C@@H]1N=[N+]=[N-] |  |  | CEM-F + CEM |  | 2.76 µM
Cc1cccc(Cl)c1-n1nnnc1SCC(=O)Nc1ccccc1[N+](=O)[O-] |  |  | MT-4 |  | <10 µM
CCCCN1C(=O)C(CC2CCCCC2)NC(=O)C12CCN(Cc1ccc3c(c1)OCCO3)CC2 | BAL R5 |  | PBMC |  | 0.082 µM
Cc1cn([C@H]2C[C@H](N=[N+]=[N-])[C@@H](CO)O2)c(=O)[nH]c1=O | AZT RT-MDR |  | PBMC | RT M41L L74V T215Y V106N | >10 µM
O=C1N(Cc2ccc(CO)cc2)[C@H](Cc2ccccc2)[C@H](O)[C@@H](O)[C@@H](Cc2ccccc2)N1Cc1ccc(CO)cc1 | NL4-3 |  | MT-4 | PR-L63P | <0.1 µM
Cc1cccc(C)c1OCC(=O)N[C@@H](Cc1ccccc1)[C@H](O)CN1CC[C@@H](Sc2ccncc2)C[C@H]1C(=O)NC(C)(C)C | IIIB |  | C8166 |  | 0.002 µM
Cc1cn([C@H]2C[C@H](N=[N+]=[N-])[C@@H](CO)O2)c(=O)[nH]c1=O | IIIB |  | PBMC |  | 0.0053 µM
O=C(O[C@@H]1Cc2c(O)cc(O)cc2O[C@@H]1c1cc(O)c(=O)c2c(O)c(O)cc([C@H]3Oc4cc(O)cc(O)c4C[C@H]3OC(=O)c3cc(O)c(O)c(O)c3)c2c1)c1cc(O)c(O)c(O)c1 | IIIB |  | H9 |  | >48 µg/mL
CCCc1cc(=O)oc2c3c(c4c(c12)OC(C)(C)C=C4)O[C@H](C)[C@@H](C)[C@@H]3O | RF |  | CEM + CEM-SS |  | 0.07 µM
Cc1cn([C@H]2C[C@H](N=[N+]=[N-])[C@@H](CO)O2)c(=O)[nH]c1=O | MOKW |  | PBMC |  | 0.001 µM
O=C(N[C@H]1c2ccccc2OC[C@H]1O)[C@H](Cc1cccnc1)C[C@H](O)CN1CCN(Cc2ccn(-c3ccccc3F)c2)C[C@H]1C(=O)NCC(F)(F)F | NL4-3 WT |  | MT-4 |  | <0.015 µM
CC#CCN1C(=O)[C@H]([C@@H](O)C2CCCCC2)NC(=O)C12CCN(Cc1c(C)nn(-c3ccccc3)c1C)CC2 | NL4-3 X4 |  | PBMC |  | >1 µM
CC(C)(C)NC(=O)[C@@H]1C[C@@H]2CCCC[C@@H]2CN1C[C@@H](O)[C@H](Cc1ccccc1)NC(=O)[C@H](CC(N)=O)NC(=O)c1ccc2ccccc2n1 | NL4-3 |  | MT-4 | PR-L10R M46I L63P | <0.025 µM
Cc1cn([C@H]2C[C@H](N=[N+]=[N-])[C@@H](CO)O2)c(=O)[nH]c1=O | DV |  | SupT1 + Sup-T1 |  | 0.04 µM
CCc1cc(CCc2nc3c(Cl)ccc(Cl)c3o2)c(=O)[nH]c1C | A17 |  | H9 | RT-K103N Y181C | <1.5 µM
O=C1OC(C2OC(=O)c3cc(O)c(O)c(O)c3-c3c(O)c(O)c4oc(=O)c5c(c(O)c(O)c6oc(=O)c3c4c65)-c3c(cc(O)c(O)c3O)C(=O)OCC2O)C2OC(=O)c3c(c(O)c(O)c(O)c3C2O)-c2c1cc(O)c(O)c2O | IIIB |  | H9 |  | 1 µg/mL
COc1c(C)c2c(c(O)c1C/C=C(\C)CCC(=O)O)C(=O)OC2 | MDR (RT M41L D67N K70R M184V H208Y T215Y K219E) DRSM34 |  | PBMC | RT-M41L D67N K70R M184V H208Y T215Y K219E | 0.12 µM
CCc1cc(CCc2nc3ccccc3o2)c(=O)[nH]c1C | A17 |  | H9 | RT-K103N Y181C | <100 µM
Nc1ccn([C@H]2CC[C@@H](CO)O2)c(=O)n1 | 126 BCH-189 (RT-M184V) |  | MT-4 | RT-M184V | 2.3 µM
Fc1ccccc1CCNC(=S)Nc1ccc(Br)cn1 | RT-Y181C K103N A17 variant NNRTI-resistant |  | PBMC |  | 35 µM
O=C(O[C@@H]1Cc2c(O)cc(O)cc2O[C@@H]1c1cc(O)c(O)c(O)c1-c1c([C@H]2Oc3cc(O)cc(O)c3C[C@H]2O)cc(O)c(O)c1O)c1cc(O)c(O)c(O)c1 | IIIB |  | H9 |  | >9.5 µg/mL
Cc1cn([C@H]2C=C[C@@H](CO)O2)c(=O)[nH]c1=O | BaL |  | PBMC |  | 0.047 µM
[N-]=[N+]=N[C@H]1C[C@H](n2ccc(N)nc2=O)O[C@@H]1CO | AZT-resistant (RT D67N K70R T215F K219Q) |  | MT-2 | RT-D67N K70N T215F K219Q | 160.8 µM
N#Cc1ccccc1-n1ccc(CN2CCN(C[C@@H](O)C[C@@H](Cc3cccnc3)C(=O)N[C@H]3c4ccccc4OC[C@H]3O)[C@H](C(=O)NCC(F)(F)F)C2)c1 | Q-60C Clinical isolate |  | MT-4 | PR-L10I N37S R41K M46I I54V I62V L63P A71V V77I V82A L90M I93L | <0.062 µM
CC[C@H](C)[C@H](C(=O)O)N1C[C@H](CN2CCC(c3cc(Cc4ccc(OC)c(OC)c4)nn3CC)CC2)[C@@H](c2cccc(F)c2)C1 | BaL | 50% human serum | PBMC |  | <0.028 µM
O=C(O[C@H](Cc1c(O)cc(O)cc1O)[C@@H](c1cc(O)c(O)c(O)c1)c1c(O)cc(O)c2c1O[C@H](c1cc(O)c(O)c(O)c1)[C@H](OC(=O)c1cc(O)c(O)c(O)c1)C2)c1cc(O)c(O)c(O)c1 | IIIB |  | H9 |  | >8 µg/mL
Cc1cn([C@H]2C[C@H](N=[N+]=[N-])[C@@H](CO)O2)c(=O)[nH]c1=O.O=C(O)P(=O)(O)O | IIIB |  | MT-4 |  | 0.676 µM
C[C@H](Cn1cnc2c(N)ncnc21)OCP(=O)(O)O | JF4A ddC-resistant (RT T69D) |  | MT-2 | RT-T69D | 1.5 µM
NC(=O)C[C@H](NC(=O)c1ccc2ccccc2n1)C(=O)N[C@@H](Cc1ccccc1)[C@H](O)CN[C@@H](Cc1ccccc1)C(=O)N[C@H]1c2ccccc2C[C@H]1O | IIIB |  | MT-4 |  | <0.0125 µM